The values below come from PMC4756307.

The series deals with CodY (6His-CodY) (UniProt A0A0H3MTH0). The experiment in a line: EMSA. The following applies: EMSA: 1 ug PCR product with 0-2200 ng CodY in binding buffer (Beyotime; composition, pH and salt not given), 30 min at 37 C, native PAGE, ethidium bromide …; recombinant protein; residues 1-262; probe letters rebuilt from the primers and the genome. For orientation: Mobility shift assays separate free from complexed probe on a gel.

For the sequence “CCGATTAAGGTTGTGTTGATCAATAACCACTCTCTTGGAATGGTTCGTCAATGGCAGGAATCCTTCTATGAAAAGCGTCGTAGCCAATCTGTCTTTGACGATGAACCGAATTTCCAATTGTTGGCAGAGGCCTACGGAATTAGTCATTATAGTTTTGACAATCCAGCGACTCTAAGTGAAGATATGAAAGTTATCTTAGAAGATAAACCAATGCTCATAGAGGTTCATATTTCTAATCGTGAACATGTTCAACCGATGGTGCCAGCAGGTAAGAGCAATGCAGAAATGTTGGGGGTGAAGTTCA (double strand) [ilvH promoter]”, the binding result is given as “binds”.

Regarding “TTTTGGTCTTGGGATTACTGGCTTTCGGTCAGTATGATTTTCCAACAGGGATTGGCACTTTAATCGTCGGTGGTTTGATTGTCTCACTCGGAGTTTCTCTTGGTGGTCCAACAGGATATGCCCTAAACCCTGCGCGTGATCTTGGTCCTCGTATCATGCATGCCATCCTTCCATTGAAGCACAAGGGAGATTCGGATTGGGGCTATGCATGGGTACCAGTAGTTGGTCCAATCATCGGAGGCTTGCTTGCGGCTCTCCTTTATGGTCTCATTTTTTAAAAAATATCCTTCTCTAATCAGCAATGGTTAGGGAAGTTTTT (double strand) [glo promoter]”, the binding result is “binds”.
